B1: RAC-alpha serine/threonine-protein kinase (Homo sapiens), P31749 (parent)
chain: MSDVAIVKEGWLHKRGEYIKTWRPRYFLLKNDGTFIGYKERPQDVDQREAPLNNFSVAQCQLMKTERPRPNTFIIRCLQWTTVIERTFHVETPEEREEWTTAIQTVADGLKKQEEEEMDFRSGSPSDNSGAEEMEVSLAKPKHRVTMNEFEYLKLLGKGTFGKVILVKEKATGRYYAMKILKKEVIVAKDEVAHTLTENRVLQNSRHPFLTALKYSFQTHDRLCFVMEYANGGELFFHLSRERVFSEDRARFYGAEIVSALDYLHSEKNVVYRDLKLENLMLDKDGHIKITDFGLCKEGIKDGATMKTFCGTPEYLAPEVLEDNDYGRAVDWWGLGVVMYEMMCGRLPFYNQDHEKLFELILMEEIRFPRTLGPEAKSLLSGLLKKDPKQRLGGGSEDAKEIMQHRFFAGIVWQHVYEKKLSPPFKPQVTSETDTRYFDEEFTAQMITITPPDQDDSMECVDSERRPHFPQFSYSASGTA
partner: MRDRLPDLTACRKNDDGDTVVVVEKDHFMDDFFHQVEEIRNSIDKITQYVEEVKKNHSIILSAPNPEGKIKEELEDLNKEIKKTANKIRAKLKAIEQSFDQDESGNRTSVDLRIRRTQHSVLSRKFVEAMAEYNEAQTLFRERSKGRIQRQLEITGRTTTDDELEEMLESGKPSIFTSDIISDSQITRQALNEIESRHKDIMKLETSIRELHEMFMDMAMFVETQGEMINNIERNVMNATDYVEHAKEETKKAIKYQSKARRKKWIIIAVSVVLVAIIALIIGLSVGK

The test covers variants of B1. The conditions noted are these: with stx2_human STX2, P32856.
With E17K, the “effect of a mutation on the interaction” value is reported as “with no effect”.

For the origin of these results see IntAct's records for PubMed 35512704.
